Measured values from several laboratories, pooled; numbers as filed in NIAID ChemDB.

Shared fields: growth or infection tests; agent: Candida albicans

ECn is the concentration giving n% inhibition of infection, replication or growth.

SMILES	method	measure	strain or isolate	result
C[C@@H](c1ncncc1F)[C@](O)(Cn1cncn1)c1ccc(F)cc1F		MIC	JL2052 (FLU-R)	2 µg/mL
Nn1c(SCC(O)(Cn2cncn2)c2ccc(Cl)cc2Cl)nnc1-c1ccncc1	broth dilution	MIC	PTCC 6027	>64 µg/mL
c1ccc(CO/N=C2\c3ccccc3OCC2n2cncn2)cc1		MFC	ATCC 10231	>64 µg/mL
CC(=O)N1CCN(c2ccc(OC[C@H]3CO[C@](Cn4ccnc4)(c4ccc(Cl)cc4Cl)O3)cc2)CC1		MIC90	16 strains	4 µg/mL
CC(=O)OCC1C=C(c2cccc(Cl)c2)C(=O)O1		MIC50	9 isolates fluconazole-resistant	2 µg/mL
COc1cc(C(=O)CO[C@H]2CC(C)=CC[C@@]3(C)CC[C@@](O)(C(C)C)[C@H]23)ccc1O	broth dilution	EC90		>50 µg/mL
CCCCCCCCCCCCCCCC(=O)NC1CCC(O)NC(=O)C2C(O)C(C)CN2C(=O)C(C(O)CC(N)=O)NC(=O)C(C(O)Cc2ccc(O)c(OS(=O)(=O)O)c2)NC(=O)C2CC(O)CN2C(=O)C(C(C)O)NC1=O		MIC50	FP629	0.008 µg/mL
CC1=C[C@@H](OC(=O)C(C)=C(C)C)[C@@]2(C)C(=O)C[C@H](C(C)C)[C@@]2(O)CC1	broth dilution	EC90		>50 µg/mL
CCCCCOc1ccc(-c2ccc(-c3ccc(C(=O)N[C@H]4CCCNC(=O)C5C[C@@H](O)N5C(=O)C(C(C)O)NC(=O)C(CCc5ccc(O)cc5)NC(=O)C5C[C@@H](O)CN5C(=O)C(C(C)O)NC4=O)cc3)cc2)cc1		MIC	ATCC 10231	0.78 µg/mL
Clc1ccc(CO/N=C2/c3ccc(Cl)cc3OCC2n2cnnc2)cc1		MIC	ATCC 10231	16 µg/mL
Clc1ccccc1C(c1ccccc1)(c1ccccc1)n1ccnc1		MIC50	16 strains	0.5 µg/mL
CCCCCCCCCCCCCCCC(=O)NC1CC(O)C(O)NC(=O)C2C(O)C(C)CN2C(=O)C(C(O)CC(N)=O)NC(=O)C(C(O)Cc2ccc(O)c(OS(=O)(=O)O)c2)NC(=O)C2CC(O)CN2C(=O)C(C(C)O)NC1=O		MIC50	FP582	0.015 µg/mL
CCC(O)/C=C/C=C/C=C/C(=O)OC[C@H]1O[C@@H](O[C@H]2[C@H](OC(=O)/C=C/C=C/CC(O)/C(C)=C/C=C/CCC(C)CC)[C@@H](O)[C@@]3(OCc4cc(O)cc(O)c43)O[C@@H]2CO)[C@H](O)[C@@H](O)[C@H]1O		MIC	83-2-14	1.6 µg/mL
CC(C)N=C(N)c1ccc2nc(-c3ccc4c(c3)Cc3cc(-c5nc6ccc(C(N)=NC(C)C)cc6[nH]5)ccc3-4)[nH]c2c1		MIC	Isolate CA2601 fluconazole-resistant	1.56 µg/mL
Nn1c(SCC(O)(Cn2cncn2)c2ccc(Cl)cc2Cl)nnc1-c1cccc(Br)c1	broth dilution	MIC	ATCC 18804	>64 µg/mL
C[C@@H](c1nc(-c2ccc(C#N)cc2)cs1)[C@](O)(Cn1cncn1)c1ccc(F)cc1F		MIC50		≤0.006 µg/mL
Cc1cc(NC(=O)c2ccccc2NC(=O)COc2ccc(Cl)cc2Cl)no1		MIC	ATCC 10231	>100 µg/mL
Nn1c(SCC(O)(Cn2cncn2)c2ccc(F)cc2F)nnc1-c1ccc(Cl)cc1Cl	broth dilution	MIC	IRFC 192	>64 µg/mL
CC(=O)OCC1C=C(c2ccc(Cl)c(Cl)c2)C(=O)O1		MIC50	16 isolates fluconazole-susceptible	2 µg/mL
Nn1c(SCC(O)(Cn2cncn2)c2ccc(F)cc2F)nnc1-c1ccc(Cl)cc1	broth dilution	MIC	IRFC 36	>64 µg/mL
COc1cc(C(=O)O[C@H]2C=C(C)/C(=C\CO)C[C@@]3(C)CC[C@@](O)(C(C)C)C23)ccc1O		MIC	SC5314	>50 µg/mL
Cc1cc(NC(=O)c2ccc(NC(=O)COc3ccccc3)cc2)no1		MIC	ATCC 10231	>100 µg/mL
Nn1c(SCC(O)(Cn2cncn2)c2ccc(Cl)cc2Cl)nnc1-c1ccc(Cl)cc1Cl	broth dilution	MIC	ATCC 18804	4 µg/mL
Cc1c(O)cccc1C(=O)N[C@@H](CSc1ccccc1)[C@H](O)CN1C[C@H]2CCCC[C@H]2C[C@H]1C(=O)NC(C)(C)C		MIC	I46A	64 µg/mL
COc1ccc(-c2nnc(SCC(O)(Cn3cncn3)c3ccc(Cl)cc3Cl)n2N)cc1	broth dilution	MIC	IRFC 37	4 µg/mL
CCCCCOc1ccc(-c2ccc(-c3ccc(C(=O)N[C@H]4CCCNC(=O)C5C[C@H](NC(=O)CCc6ccccc6)CN5C(=O)C(C(C)O)NC(=O)C(CCc5ccc(O)cc5)NC(=O)C5C[C@@H](O)CN5C(=O)C(C(C)O)NC4=O)cc3)cc2)cc1		MIC	ATCC 10231	25 µg/mL
C[C@H]1[C@H](O)[C@@H](C)/C=C/C=C/C=C/C=C/C=C/C=C/C=C/[C@H](O[C@@H]2O[C@H](C)[C@@H](O)[C@H](N)[C@@H]2O)C[C@@H]2O[C@](O)(C[C@@H](O)C[C@@H](O)CC[C@H](O)[C@@H](O)C[C@@H](O)CC(=O)O[C@H]1C)C[C@H](O)[C@H]2C(=O)O	broth dilution	EC50	10231	2 µM
CC(C)[C@]1(O)CC[C@]2(C)C[C@@H]3O[C@]3(C)C[C@H](OC(=O)c3ccc(O)cc3)C21		MIC	SC5314	>50 µg/mL
Cc1cc(NC(=O)c2ccc(NC(=O)COc3ccc(Cl)cc3Cl)cc2)no1		MIC	ATCC 10231	>100 µg/mL
CCCCCOc1ccc(-c2ccc(-c3ccc(C(=O)N[C@H]4CCCNC(=O)[C@@H]5C[C@H](N)CN5C(=O)[C@H](CCCN)NC(=O)C(CCc5ccc(O)cc5)NC(=O)[C@@H]5C[C@@H](O)CN5C(=O)[C@H]([C@@H](C)O)NC4=O)cc3)cc2)cc1		MIC	ATCC 10231	0.39 µg/mL
C[C@H]1[C@H](O)[C@@H](C)/C=C/C=C/C=C/C=C/C=C/C=C/C=C/[C@H](O[C@@H]2O[C@H](C)[C@@H](O)[C@H](N)[C@@H]2O)C[C@@H]2O[C@](O)(C[C@@H](O)C[C@@H](O)CC[C@H](O)[C@@H](O)C[C@@H](O)CC(=O)O[C@H]1C)C[C@H](O)[C@H]2C(=O)O		MIC50		0.78 µg/mL
COc1ccc(-c2nnc(SCC(O)(Cn3cncn3)c3ccc(F)cc3F)n2N)cc1	broth dilution	MIC	IRFC 37	>64 µg/mL
Clc1ccc(CO/N=C2/c3ccccc3OCC2n2cncn2)cc1		MFC	ATCC 10231	64 µg/mL
Nn1c(SCC(O)(Cn2cncn2)c2ccc(Cl)cc2Cl)nnc1-c1ccc(Cl)cc1	broth dilution	MIC	IRFC 37	>64 µg/mL
CCCCCOc1ccc(-c2ccc(-c3ccc(C(=O)N[C@H]4CCCNC(=O)C5C[C@H](NC(=O)NCCN(C)C)CN5C(=O)C(C(C)O)NC(=O)C(CCc5ccc(O)cc5)NC(=O)C5C[C@@H](O)CN5C(=O)C(C(C)O)NC4=O)cc3)cc2)cc1		MIC	ATCC 10231	0.78 µg/mL
CC(C)[C@]1(O)CC[C@]2(C)C[C@@H]3O[C@]3(C)C[C@H](OCC(=O)c3ccccc3)[C@H]21	broth dilution	EC90		>50 µg/mL
CCCCCC(=O)O[C@H]1[C@H](OC(=O)CCCCC)[C@H](OCC23C4C=C(C(C)C)C2(C(=O)O)C(C=O)(C4)[C@@H]2CC[C@@H](C)[C@H]23)O[C@H](C)[C@H]1OC		MIC	2402	8 µg/mL
Cc1cc(NC(=O)c2ccccc2NC(=O)COc2cccc(Cl)c2Cl)no1		MIC	ATCC 10231	>100 µg/mL
Clc1cccc(Cl)c1CO/N=C1/c2ccccc2OCC1n1cncn1		MFC	ATCC 10231	>64 µg/mL
Nc1[nH]c(=O)ncc1F	broth dilution	MIC	ATCC 90028	1 µg/mL
CCCCCOc1ccc(-c2ccc(-c3ccc(C(=O)N[C@H]4CCCNC(=O)C5[C@@H](O)CN5C(=O)C(C(C)O)NC(=O)C(CCc5ccc(O)cc5)NC(=O)C5C[C@@H](O)CN5C(=O)C(C(C)O)NC4=O)cc3)cc2)cc1		MIC	ATCC 10231	0.39 µg/mL

Repeating the first 3 entries:

SMILES | method | measure | strain or isolate | result
C[C@@H](c1ncncc1F)[C@](O)(Cn1cncn1)c1ccc(F)cc1F |  | MIC | JL2052 (FLU-R) | 2 µg/mL
Nn1c(SCC(O)(Cn2cncn2)c2ccc(Cl)cc2Cl)nnc1-c1ccncc1 | broth dilution | MIC | PTCC 6027 | >64 µg/mL
c1ccc(CO/N=C2\c3ccccc3OCC2n2cncn2)cc1 |  | MFC | ATCC 10231 | >64 µg/mL

Conditions beyond the fields shown may differ between rows. MIC50, MIC90 and the like: level of inhibition, or share of isolates inhibited. An empty or dashed field is not shown.